The data set relates to Neisseria HU. The data set is described as follows: EMSA. To be noted: EMSA: 20 mM Tris pH 7.4, 100 mM NaCl, 25 C, 15 min (30 min HU/competitor pre-incubation), 4% agarose gel, recombinant protein, protein details: C-terminal His6, label: none (SYBR Green I stain).

Construct, isoform or probe ends are uncertain for at least one entry. A weaker result is weaker than the reference pair of the same experiment.

Consider “CTCGCGAGCTCGCGAGCTCGCGAGCTCGCGAGCTCGCGAGCTCGTCGCGAG (double strand) [HU EMSA DNA substrate (stated 48 bp)]”, for which the binding result reads like this: (8 uM HU dimer, 0.5 uM DNA, no competitor, SYBR Green …) “binds”; (HU pre-incubated with DMP19 (8 or 16 uM), shift reduced at 1:1 DMP19 monomer:HU dimer, SYBR Green I) “binds more weakly”; (with BSA as control competitor protein, no change in HU-bound band, SYBR Green I) “binds”; (with ICP11 (DNA mimic) as control competitor protein, no change in HU-bound band, SYBR Green I) “binds”.

Values taken from publication PMC5722371.
